From article PMC5593926 (Scientific Reports, 2017)
For some of these results: Where a sequence shows no end group, the ends are not given.

Legend:
[1] = general procedure: peptide synthesis; Rink amide MBHA (0.45 mmol/g); p-methylbenzhydrylamine resin (p-MBHA); HATU/DIPEA; details: whole synthesis, analytical HPLC, ESI-MS, scale of the general procedure 0.2 mmol
[2] = Boc solid-phase peptide synthesis; p-MBHA; HATU/DIPEA; details: whole synthesis, scale of the general procedure 0.2 mmol
[3] = Secondary structure analysis by circular dichroism; type: physicochemical; details: 600 µg/ml, 190-250 nm, 0.1 cm path length, triplicate
Experimental: Conformational studies of constructs were performed using a J-710 spectropolarimeter (Jasco Corporation, Japan). Samples with 600 µg/ml concentration were transferred into a low volume quartz cuvette with 0.1 cm path length. CD spectra were analysed between 250 nm and 190 nm wavelengths. Measurements were performed in triplicate (reported as an average of readings). Spectral results are reported as mean residual ellipticity (θ) versus wavelength (nm).

Sequence	final HPLC purity [1] [%]	isolated yield [2] [%]	Secondary structure (Determined by CD) [3]
AKFVAAWTLKAAA	≥95	52	–
KNYIDKQLLPIVNKQS [ØP1]	–	–	Random coil
SELLSLINDMPITNDQKKLMSNN [IIP3]	–	–	Random coil
